Compound potency records, mixed from different reports. Data source: NIAID ChemDB in PubChem.

Shared fields: tests in culture; organism: Mycobacterium avium intracellulare; read-out: MIC

Blank or dashed fields: not listed here. Conditions beyond the fields shown may differ between rows.

{"compound": "COc1c(N2C[C@@H]3CCCN[C@@H]3C2)c(F)cc2c(=O)c(C(=O)O)cn(C3CC3)c12", "result": "0.2 µg/mL"}
{"compound": "O=C1c2nc3ccccc3c3ccnc(c23)C2C=CC=CC12", "result": "0.39 µg/mL"}
{"compound": "NC[C@H]1O[C@H](O[C@H]2[C@H](O)[C@@H](O[C@H]3O[C@H](CO)[C@@H](O)[C@H](N)[C@H]3O)[C@H](N)C[C@@H]2N)[C@H](O)[C@@H](O)[C@@H]1O", "strain": "N-809 (HIV-)", "result": "2 µg/mL"}
{"compound": "CO[C@H]1/C=C/O[C@@]2(C)Oc3c(C)c(O)c4c(O)c(c(/C=N/N5CCN(C)CC5)c(O)c4c3C2=O)NC(=O)/C(C)=C\\C=C\\[C@H](C)[C@H](O)[C@@H](C)[C@@H](O)[C@@H](C)[C@H](OC(C)=O)[C@@H]1C", "strain": "CIPT 140310021", "result": "0.05 µg/mL"}
{"compound": "NC[C@H]1O[C@H](O[C@H]2[C@H](O)[C@@H](O[C@H]3O[C@H](CO)[C@@H](O)[C@H](N)[C@H]3O)[C@H](N)C[C@@H]2N)[C@H](O)[C@@H](O)[C@@H]1O", "result": ">32 µg/mL"}
{"compound": "C[C@@H]1CN(c2c(F)c(N)c3c(=O)c(C(=O)O)cn(C4CC4)c3c2F)C[C@H](C)N1", "result": "0.3 µg/mL"}
{"compound": "CC(C)N=c1cc2n(-c3ccc(Cl)cc3)c3ccccc3nc-2cc1Nc1ccc(Cl)cc1", "strain": "ATCC35761", "result": "3 µg/mL"}
{"compound": "CCn1cc(C(=O)O)c(=O)c2cc(F)c(N3CCNCC3)cc21", "result": "11.4 µg/mL"}
{"compound": "COC1/C=C\\C2=C[C@]34CN5CCCC/C=C\\CCC(=C[C@@H](c6nccc7c6[nH]c6ccccc67)[C@H]3CC5)[C@@H]4N2CCC1", "result": "2 µg/mL"}
{"compound": "CO[C@H]1/C=C/O[C@@]2(C)Oc3c(C)c(O)c4c(=O)c(c5oc6cc(N7CCN(CC(C)C)CC7)cc(=O)c6nc5c4c3=C2O)NC(=O)/C(C)=C\\C=C\\[C@H](C)[C@H](O)[C@@H](C)[C@@H](O)[C@@H](C)[C@H](OC(C)=O)[C@@H]1C", "strain": "N-260", "result": "0.1 µg/mL"}
{"compound": "CO[C@H]1/C=C/O[C@@]2(C)Oc3c(C)c(O)c4c(O)c(c(/C=N/N5CCN(C)CC5)c(O)c4c3C2=O)NC(=O)/C(C)=C\\C=C\\[C@H](C)[C@H](O)[C@@H](C)[C@@H](O)[C@@H](C)[C@H](OC(C)=O)[C@@H]1C", "strain": "ATCC 13950", "result": "0.5 µg/mL"}
{"compound": "NNC(=O)c1ccncc1", "result": "8 µg/mL"}
{"compound": "CN1CCN(c2c(F)cc3c(=O)c(C(=O)O)cn(CCF)c3c2F)CC1", "result": "8.1 µg/mL"}
{"compound": "CC(=O)NCC1CN(c2ccc(C(C)=O)cc2)C(=O)O1", "strain": "1 isolates", "result": ">250 µg/mL"}
{"compound": "CC[C@H]1OC(=O)[C@H](C)[C@@H](O[C@H]2C[C@@](C)(OC)[C@@H](O)[C@H](C)O2)[C@H](C)[C@@H](O[C@@H]2O[C@H](C)C[C@H](N(C)C)[C@H]2O)[C@](C)(O)C[C@@H](C)C(=O)[C@H](C)[C@@H](O)[C@]1(C)O", "strain": "ATCC 13950", "result": "64 µg/mL"}
{"compound": "CCn1cc(C(=O)O)c(=O)c2cc(F)c(N3CCNC(C)C3)c(F)c21", "result": "4.9 µg/mL"}
{"compound": "NCC[C@H](O)C(=O)N[C@@H]1C[C@H](N)[C@@H](O[C@H]2O[C@H](CN)[C@@H](O)[C@H](O)[C@H]2O)[C@H](O)[C@H]1O[C@H]1O[C@H](CO)[C@@H](O)[C@H](N)[C@H]1O", "result": "2 µg/mL"}
{"compound": "COc1c(N2CCNC(C)C2)c(F)cc2c(=O)c(C(=O)O)cn(C3CC3)c12", "result": "0.9 µg/mL"}
{"compound": "CO[C@H]1/C=C/O[C@@]2(C)Oc3c(C)c(O)c4c(O)c(c5c(c4c3C2=O)NC2(CCN(CC(C)C)CC2)N=5)=NC(=O)/C(C)=C\\C=C\\[C@H](CO)[C@H](O)[C@@H](C)[C@@H](O)[C@@H](C)[C@H](OC(C)=O)[C@@H]1C", "strain": "CDC2", "result": "1.25 µg/mL"}

A second listing of 2 rows from above:

compound	strain	result
CC(C)N=c1cc2n(-c3ccc(Cl)cc3)c3ccccc3nc-2cc1Nc1ccc(Cl)cc1	ATCC35761	3 µg/mL
C[C@@H]1CN(c2c(F)c(N)c3c(=O)c(C(=O)O)cn(C4CC4)c3c2F)C[C@H](C)N1		0.3 µg/mL